Data on 1 compound can be found in patent US7115749B2, “Substituted 5-oxo pyrazoles and [1,2,4]triazoles as antiviral agents” (priority 2004, dated 2006).

The chains behind the UniProt entries cited, without tags or fusion partners. Where a name states a change or a piece, a line headed by the entry shows the natural chain unless it says otherwise. Residues count along the entry.
UniProt P26663, 2420-2989 limits assumed, stated change not applied: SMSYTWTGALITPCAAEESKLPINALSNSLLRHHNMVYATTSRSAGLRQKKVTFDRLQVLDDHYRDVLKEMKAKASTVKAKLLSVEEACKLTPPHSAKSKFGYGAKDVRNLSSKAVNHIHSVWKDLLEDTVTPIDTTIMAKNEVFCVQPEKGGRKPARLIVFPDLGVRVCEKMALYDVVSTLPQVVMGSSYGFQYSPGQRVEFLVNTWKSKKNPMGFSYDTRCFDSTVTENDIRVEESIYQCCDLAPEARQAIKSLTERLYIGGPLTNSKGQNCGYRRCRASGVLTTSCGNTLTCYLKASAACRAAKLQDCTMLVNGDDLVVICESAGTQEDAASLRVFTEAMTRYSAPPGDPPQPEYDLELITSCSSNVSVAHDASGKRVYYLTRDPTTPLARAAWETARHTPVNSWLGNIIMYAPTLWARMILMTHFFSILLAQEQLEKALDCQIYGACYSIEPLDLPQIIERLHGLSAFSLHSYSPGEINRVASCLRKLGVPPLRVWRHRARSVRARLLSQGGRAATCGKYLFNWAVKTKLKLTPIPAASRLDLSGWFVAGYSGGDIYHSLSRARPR

Structures were worked out from names or drawings and are uncertain.

The assay has as its target HCV RNA-dependent RNA polymerase NS5B (Δ21) (Hepatitis C virus genotype 1b, UniProt P26663). Briefly: Assay for HCV RNA-dependent RNA polymerase activity (SPA, [3H]-GTP incorporation). It counts as biochemical. The note with it: read-out: Δ21 Activity (IC50 μM); 50 nM NS5B (Δ21), polyC/biotinylated oligoG12, 5 μM GTP, room temperature, three hours; 11 serial 2-fold dilutions (0.05–50 μM), single experiments. How it is done: Assay for HCV RNA-dependent RNA Polymerase Activity
Inhibitory activity of the present compounds against HCV RNA-dependent RNA polymerase was assayed according to the methods disclosed in U.S. Patent Application U.S.2004/038993, content of which is incorporated herein by reference; and those described in Ferrari, E.; Wright-Minogue, J.; Fang, J. W. S.; Baroudy, B. M.; Lau, J. Y. N.; Hong, Z. J. Virol. 1999, 73, 1649.
Briefly, 50 μl reactions containing 20 mM HEPES (pH 7.3), 7.5 mM DTT, 20 units/ml RNasIN, 0.5 ug/ml biotinylated oligoG12, 5 μg/ml polyC, 5 μM GTP, 20 μCi/ml [^3H]-GTP, 10 mM MgCl2, 60 mM NaCl, 100 μg/ml BSA, and 50 nM NS5B (Δ21) were incubated at room temperature for three hours in 96-well plates with or without test compounds. Assay was terminated by the addition of 50 μl 10 mg/ml streptavidin-coated SPA beads supplemented with 100 mM EDTA, and the incorporation of labeled GTP determined by a TopCount Scintillation Counter. IC50 values were calculated from single experiments using 11 serial 2-fold dilutions (0.05–50 μM), and data were considered reliable only when the IC50 value of a positive internal control was within standard deviation range.

The IC50 is the midpoint of a concentration-inhibition curve. Take `O=C(Cn1nc(C(=O)O)cc1OCc1ccccc1-c1ccc(C(F)(F)F)cc1)N[C@H]1CCCC[C@@H]1OCc1ccccc1`: the IC50 stood at 0.057 µM.
